Results of unrelated studies side by side (data: NIAID ChemDB).

All rows: growth or infection tests

Blank or dashed fields: not listed here. MIC50, MIC90 and the like: level of inhibition, or share of isolates inhibited. Zones are inhibition diameters on agar. Lines come from different laboratories, so protocols vary.

smiles	agent	strain	changes	read by	setting	read-out	dose	result
COc1cc(Cc2cnc(N)nc2N)cc(OC)c1OC	Mycobacterium ulcerans	Isolate 5143	-	-	-	MIC	-	>16 µg/mL
CN1C(=O)C2(C3=C(CN2C)C(=O)c2ccccc2C3=O)c2ccccc21	Mycobacterium luteus	-	-	agar diffusion	-	MIC	-	125 µg/mL
Fc1ccc(Cn2cc(/C=N/Nc3nncs3)c3ccccc32)cc1	Mycobacterium bovis BCG	1173P2	-	broth dilution	48 h	MIC100	-	3.91 µg/mL
CCNC(=O)Nc1ccc(S(=O)(=O)Nc2cc(C)on2)cc1	Mycobacterium kansasii	235/80	-	broth dilution / absorbance	7 d	MIC100	-	125 µM
CCCCCCN1C(=O)C2(C3=C(CN2C)C(=O)c2ccccc2C3=O)c2ccccc21	Mycobacterium luteus	-	-	agar diffusion	-	MIC	-	250 µg/mL
CCCCCCCNC(=O)Nc1ccc(S(=O)(=O)Nc2cc(C)on2)cc1	Mycobacterium kansasii	235/80	-	broth dilution / absorbance	7 d	MIC100	-	4 µM
O=C1c2cc(Cl)ccc2OP(=O)(c2ccccc2)N1c1ccc(Cl)c(Cl)c1	Mycobacterium kansasii	My 6509/96	-	-	14 d	MIC	-	16 µM
CC1CN(c2c(F)cc3c(=O)c(C(=O)O)cn(C4CC4)c3c2F)CCN1	Mycobacterium smegmatis	KD1991 (GYRA D95Y)	-	-	-	MIC99	-	1.1 µg/mL
O=C(Nc1ccccc1)c1ccccc1OP(=O)(Oc1ccccc1)c1ccccc1	Mycobacterium kansasii	My 235/80	-	-	14 d	MIC	-	500 µM
CN[C@@H]1[C@H](O[C@H]2[C@H](O[C@H]3[C@H](O)[C@@H](O)[C@H](N=C(N)N)[C@@H](O)[C@@H]3N=C(N)N)O[C@@H](C)[C@]2(O)C=O)O[C@@H](CO)[C@H](O)[C@H]1O	Mycobacterium avium complex	isolate C-22 23 25 36 41 33	-	-	-	MIC	-	≥400 µg/mL
O=C(Nc1ccc(Cl)cc1)c1cc(Cl)ccc1OP(=O)(Oc1ccccc1)Oc1ccccc1	Mycobacterium kansasii	My 235/80	-	-	7 d	MIC	-	8 µM
CC[C@@H](C(=O)[C@@H](C)[C@@H](O)[C@H](C)[C@@H]1O[C@@H]([C@@H](CC)C(=O)O)CC[C@@H]1C)[C@H]1O[C@@]2(C=C[C@@H](O)[C@@]3(CC[C@@](C)([C@H]4CC[C@](O)(CC)[C@H](C)O4)O3)O2)[C@H](C)C[C@@H]1C	Mycobacterium aurum	-	T125 insertion	resazurin	-	MIC	-	0.08 µg/mL
Cc1cc(NS(=O)(=O)c2ccc(NC(=O)C(=O)Nc3ccc(S(=O)(=O)Nc4cc(C)on4)cc3)cc2)no1	Mycobacterium kansasii	6509/96 clinical isolate	-	broth dilution / absorbance	21 d	MIC100	-	8 µM
CC1CN(c2cc3c(cc2F)c(=O)c(C(=O)O)cn3C2CC2)CCN1	Mycobacterium smegmatis	KD2003 (GYRA D95G)	-	-	-	MIC99	-	2.8 µg/mL
CC[C@H](N)[C@@H]1CCN(c2c(F)cn3c(=O)c(C(=O)O)cc(C4CC4)c3c2C)C1.Cl	Mycobacterium smegmatis	ATCC114	-	-	-	MIC	-	0.02 µg/mL
NNC(=S)N/N=C/c1c[nH]c2ccccc12	Mycobacterium bovis BCG	1173P2	-	broth dilution	24 h	MIC100	-	250 µg/mL
O=C(Nc1ccc(Br)cc1)c1cc(Cl)ccc1OP(=O)(OCc1ccccc1)OCc1ccccc1	Mycobacterium kansasii	My 6509/96	-	-	14 d	MIC	-	32 µM
Cc1c(N2CC3CCCNC3C2)c(F)cn2c(=O)c(C(=O)O)cc(C3CC3)c12	Mycobacterium smegmatis	ATCC114	-	-	-	MIC	-	0.1 µg/mL
C=CCN1C(=O)C2(C3=C(CN2C)C(=O)c2ccccc2C3=O)c2ccccc21	Mycobacterium luteus	-	-	agar diffusion	-	zone	50 µg/mL	10 mm
O=C(Nc1ccc(Cl)c(Cl)c1)c1cc(Cl)ccc1OP(=O)(Oc1ccccc1)Oc1ccccc1	Mycobacterium kansasii	My 6509/96	-	-	7 d	MIC	-	4 µM
CCC1CN(c2c(F)cc3c(=O)c(C(=O)O)cn(C4CC4)c3c2F)CCN1	Mycobacterium smegmatis	KD1991 (GYRA D95Y)	-	-	-	MIC99	-	1.3 µg/mL
O=C(Nc1ccc(Cl)c(Cl)c1)c1cc(Cl)ccc1OP(=O)(OCc1ccccc1)OCc1ccccc1	Mycobacterium kansasii	My 6509/96	-	-	14 d	MIC	-	125 µM
CN(C)[C@@H]1C(=O)C(C(N)=O)=C(O)[C@@]2(O)C(=O)C3=C(O)c4c(O)cccc4[C@@](C)(O)[C@H]3C[C@@H]12	Mycoplasma hominis	34 strains	-	-	-	MIC90	-	1 µg/mL
COc1c(N2CCNCC2)c(F)cc2c(=O)c(C(=O)O)cn(C3CC3)c12	Mycobacterium smegmatis	KD1991 (GYRA D95Y)	-	-	-	MIC99	-	0.61 µg/mL
Clc1ccccc1Cn1cc(/C=N/Nc2nncs2)c2ccccc21	Mycobacterium bovis BCG	1173P2	-	broth dilution	24 h	MIC100	-	7.81 µg/mL
CCCNC(=O)Nc1ccc(S(=O)(=O)Nc2cc(C)on2)cc1	Mycobacterium kansasii	235/80	-	broth dilution / absorbance	21 d	MIC100	-	1000 µM
CN(C)c1cc(NC(=O)CNC(C)(C)C)c(O)c2c1C[C@H]1C[C@H]3[C@H](N(C)C)C(=O)C(C(N)=O)=C(O)[C@@]3(O)C(=O)C1=C2O	Mycobacterium abscessus	V206	-	broth dilution	-	MIC	-	0.5 µg/mL
CCC1CN(c2c(F)cc3c(=O)c(C(=O)O)cn(C4CC4)c3c2OC)CCN1	Mycobacterium smegmatis	KD1998 (GYRA D95N)	-	-	-	MIC99	-	0.63 µg/mL
CCCCCNC(=O)Nc1ccc(S(=O)(=O)Nc2cc(C)on2)cc1	Mycobacterium kansasii	6509/96 clinical isolate	-	broth dilution / absorbance	7 d	MIC100	-	250 µM
CO[C@@H]1C[C@@H](C[C@H]2CC[C@H](C)[C@H]([C@@H](C)C(=O)O)O2)O[C@]2(O[C@](C)([C@H]3CC[C@@](C)([C@@H]4O[C@@H]([C@H]5O[C@@](O)(CO)[C@H](C)C[C@@H]5C)C[C@@H]4C)O3)C[C@H]2C)[C@@H]1C	Mycobacterium aurum	-	T125 insertion	resazurin	-	MIC	-	0.32 µg/mL
CC(C)N1CCN(c2cc3c(cc2F)c(=O)c(C(=O)O)cn3C2CC2)CC1	Mycobacterium smegmatis	KD1998 (GYRA D95N)	-	-	-	MIC99	-	4.3 µg/mL
CCN(CC)c1nc2c(s1)c1c(O)c3c(O)c(C)c4c(c32)C(=O)[C@@](C)(O/C=C/[C@H](OC)[C@@H](C)[C@@H](OC(C)=O)[C@H](C)[C@H](O)[C@H](C)[C@@H](O)[C@@H](C)/C=C/C=C(/C)C(=O)N1)O4	Mycobacterium avium	3337-4	-	-	-	MBC	-	8 µg/mL
O=C(Nc1ccccc1)c1ccccc1OP(=O)(OCc1ccccc1)OCc1ccccc1	Mycobacterium kansasii	My 6509/96	-	-	14 d	MIC	-	250 µM
Cc1c(N2CC3CCC(C)(N)C3C2)c(F)cn2c(=O)c(C(=O)O)cc(C3CC3)c12.Cl	Mycobacterium smegmatis	ATCC114	-	-	-	MIC	-	0.01 µg/mL
C#CCN1C(=O)C2(C3=C(CN2C)C(=O)c2ccccc2C3=O)c2ccccc21	Mycobacterium luteus	-	-	agar diffusion	-	zone	50 µg/mL	12 mm
O=C(Nc1ccc(Br)cc1)c1cc(Cl)ccc1OP(=O)(Oc1ccccc1)Oc1ccccc1	Mycobacterium kansasii	My 6509/96	-	-	14 d	MIC	-	8 µM
COc1cc(Cc2cnc(N)nc2N)cc(OC)c1Br	Mycobacterium ulcerans	Isolate 8756	-	-	-	MBC	-	8 µg/mL
CN1CC2=C(C(=O)c3ccccc3C2=O)C12C(=O)Nc1ccc(I)cc12	Mycobacterium luteus	-	-	agar diffusion	-	zone	50 µg/mL	15 mm
NNC(=S)N/N=C/c1cn(Cc2ccccc2Cl)c2ccccc12	Mycobacterium bovis BCG	1173P2	-	broth dilution	48 h	MIC100	-	>500 µg/mL
C[C@@H]1CN(c2c(F)c(N)c3c(=O)c(C(=O)O)cn(C4CC4)c3c2F)C[C@H](C)N1	Mycoplasma hominis	37 strains	-	-	-	MIC50	-	0.032 µg/mL
CC[C@H]1OC(=O)[C@H](C)[C@@H](O[C@H]2C[C@@](C)(OC)[C@@H](O)[C@H](C)O2)[C@H](C)[C@@H](O[C@@H]2O[C@H](C)C[C@H](N(C)C)[C@H]2O)[C@](C)(OC)C[C@@H](C)C(=O)[C@H](C)[C@@H](O)[C@]1(C)O	Mycobacterium abscessus	V139	-	broth dilution	-	MIC	-	16 µg/mL
NNC(=O)c1ccncc1	Mycobacterium kansasii	330/88	-	broth dilution / absorbance	21 d	MIC100	-	>250 µM
Cc1c(N2CCC(N3CCCCC3)CC2)c(F)cn2c(=O)c(C(=O)O)cc(C3CC3)c12	Mycobacterium smegmatis	ATCC114	-	-	-	MIC	-	0.78 µg/mL
CC[C@@H](CO)NCCN[C@@H](CC)CO	Mycobacterium avium complex	1854-4	-	-	-	MBC	-	15 µg/mL

The first 7 rows once more:

COc1cc(Cc2cnc(N)nc2N)cc(OC)c1OC ; agent: Mycobacterium ulcerans ; strain: Isolate 5143 ; read-out: MIC ; result: >16 µg/mL
CN1C(=O)C2(C3=C(CN2C)C(=O)c2ccccc2C3=O)c2ccccc21 ; agent: Mycobacterium luteus ; read by: agar diffusion ; read-out: MIC ; result: 125 µg/mL
Fc1ccc(Cn2cc(/C=N/Nc3nncs3)c3ccccc32)cc1 ; agent: Mycobacterium bovis BCG ; strain: 1173P2 ; read by: broth dilution ; setting: 48 h ; read-out: MIC100 ; result: 3.91 µg/mL
CCNC(=O)Nc1ccc(S(=O)(=O)Nc2cc(C)on2)cc1 ; agent: Mycobacterium kansasii ; strain: 235/80 ; read by: broth dilution / absorbance ; setting: 7 d ; read-out: MIC100 ; result: 125 µM
CCCCCCN1C(=O)C2(C3=C(CN2C)C(=O)c2ccccc2C3=O)c2ccccc21 ; agent: Mycobacterium luteus ; read by: agar diffusion ; read-out: MIC ; result: 250 µg/mL
CCCCCCCNC(=O)Nc1ccc(S(=O)(=O)Nc2cc(C)on2)cc1 ; agent: Mycobacterium kansasii ; strain: 235/80 ; read by: broth dilution / absorbance ; setting: 7 d ; read-out: MIC100 ; result: 4 µM
O=C1c2cc(Cl)ccc2OP(=O)(c2ccccc2)N1c1ccc(Cl)c(Cl)c1 ; agent: Mycobacterium kansasii ; strain: My 6509/96 ; setting: 14 d ; read-out: MIC ; result: 16 µM